This data set relates to epimastigotes of T. cruzi (Dm28c, TcI). The data set can be described thus: Epimastigote cell viability assay (MTS/PMS), Dm28c. It counts as cell-based, Trypanosoma cruzi. The note with it: 4 h. How it is done: Epimastigote forms of three strains of T. cruzi, including Dm28c (TcI), CL Brener (TcVI), and Y strain (TcII), were maintained in liver infusion tryptose (LIT) medium supplemented with 10% fetal bovine serum at 28°C [16] were kindly provided by Oswaldo Cruz Institute/Fiocruz. For the experiments, exponential phase cultures were used. All assays were performed in triplicates in 96-well plates.
The effect of the isolated compounds on the viability of epimastigote forms of Dm28c strain was determined by MTS [3-(4,5-dimethylthiazol-2-yl)-5-(3-carboxymethoxyphenyl)-2-(4-sulfophenyl)-2H-tetrazolium bromide] with PMS (5-methyl-phenazinium methyl sulfate) colorimetric assay, as described by Nunes et al.. […]
The absorbance of the formazan was measured at 490 nm using a microplate reader (Asys Expert Plus -Biochrom). In parallel, we determined the effect of 1% DMSO (negative control) and benznidazole (positive control) on the viability of epimastigotes and a replicate of each treatment was performed by fixing the epimastigotes with 4% paraformaldehyde prior to the addition of MTS/PMS (basal absorbance control). […]

Consider `C=C1OC(=O)/C(=C/CCCCCCCCCCCCC)[C@@H]1O` [Isoobtusilactone A, isoobtusilactone A], for which the “SI value of 3 relative to 4, epimastigotes” value was “about 39 fold” and the “activity of 3 relative to 4 against epimastigotes” value is listed as “roughly 59 fold”.

(Values after PMC7842926, “Synergistic effect and ultrastructural changes in Trypanosoma cruzi caused by isoobtusilactone A in short exposure of time” (PLoS ONE, 2021).)
